Test: acid bypass with Bafilomycin A1, eGFP flow cytometry
Conditions: glycan lost; control: hCD164PM

B1: CD164: N104Q hCD164PM (protein)
parent chain: MSRLSRSLLWAATCLGVLCVLSADKNTTQHPNVTTLAPISNVTSAPVTSLPLVTTPAPETCEGRNSCVSCFNVSVVNTTCFWIECKDESYCSHNSTVSDCQVGNTTDFCSVSTATPVPTANSTAKPTVQPSPSTTSKTVTTSGTTNNTVTPTSQPVRKSTFDAASFIGGIVLVLGVQAVIFFLYKFCKSKERNYHTL
In the case of B1, the “other: virus-cell fusion at plasma membrane” value is reported as “abolishes”.
